Measured values from several laboratories, pooled; numbers as filed in NIAID ChemDB.

Common to all: growth or infection tests; agent: HIV-1; read-out: EC50

ECn is the concentration giving n% inhibition of infection, replication or growth. Rows are shuffled and stem from different studies. An empty or dashed field is not shown.

smiles	strain or isolate	mutations	cells	result
Nc1nc2c(ncn2[C@H]2CO[C@@H](CO)O2)c(=O)[nH]1	IIIB	-	MT-4	0.05 µM
OC[C@H]1C=C[C@@H](n2cnc3c2NCNC3=S)C1	-	-	PBMC	>100 µM
Cc1cn([C@H]2C[C@H](N=[N+]=[N-])[C@@H](CO)O2)c(=O)[nH]c1=O	HXB2	-	CBMC	0.004 µM
COc1cc(C[C@@H]2[C@H](O)[C@@H](O)[C@@H](Cc3cc(OC)cc(OC)c3)N(Cc3cccc(C(C)=O)c3)C(=O)N2Cc2cccc(C(C)=O)c2)cc(OC)c1	RF	-	MT-2	<0.0464 µM
N#CCNC(=O)c1cccc(CN2C(=O)N(Cc3cccc(C(=O)NCC(=O)O)c3)[C@H](Cc3ccccc3)[C@H](O)[C@@H](O)[C@H]2Cc2ccccc2)c1	RF	-	MT-2	<0.741 µM
C=O.Cc1cn(C2CC(N(N)N)C(COP(N)(=O)O)O2)c(=O)[nH]c1=O	-	-	-	0.191 µM
CC(C)=CCOc1cc(NC(=S)c2ccoc2C)ccc1Cl	SK1	-	CEM + CEM-SS	0.006 µM
Nc1cccc(CN2C(=O)N(Cc3cccc(C(=O)Nc4nc5ccccc5[nH]4)c3)[C@H](Cc3ccccc3)[C@H](O)[C@@H](O)[C@H]2Cc2ccccc2)c1	RF	-	MT-2	<0.0132 µM
CC(=O)c1cc(CN2C(=O)N(Cc3ccc(F)c(C(C)=O)c3)[C@H](Cc3ccc4c(c3)OCO4)[C@H](O)[C@@H](O)[C@H]2Cc2ccc3c(c2)OCO3)ccc1F	RF	-	MT-2	<0.265 µM
Cc1cn([C@H]2C[C@H](N=[N+]=[N-])[C@@H](CO)O2)c(=O)[nH]c1=O	LAI	-	PBMC	0.015 µM
CCc1c(Sc2ccccn2)n(COCc2ccccc2)c(=O)[nH]c1=O	-	-	-	0.02 µM
CC(C)(C)NC(=O)[C@@H]1C[C@@H]2CCCC[C@@H]2CN1C[C@@H](O)[C@H](Cc1ccccc1)NC(=O)[C@H](CC(N)=O)NC(=O)c1ccc2ccccc2n1	HXB2 WT	-	MT-4	0.014 µM
O=C1N(Cc2ccccc2)[C@H](Cc2ccccc2)[C@H](O)[C@@H](O)[C@@H](Cc2ccccc2)N1Cc1ccccc1	RF	-	MT-2	<0.79 µM
Cc1cc(/C=C/C#N)cc(C)c1Nc1ccnc(Nc2ccc(C#N)cc2)n1	LAI	E138K	TZM-bl	0.0008 µM
Nc1nccc2c1ncn2[C@@H]1C[C@H](CO)[C@@H](O)[C@H]1O	A012 POST-AZT	-	PBMC	0.365 µM
O=C(Nc1ccccn1)c1cccc(CN2C(=O)N(Cc3cccc([N+](=O)[O-])c3)[C@H](Cc3ccccc3)[C@H](O)[C@@H](O)[C@H]2Cc2ccccc2)c1	RF	-	MT-2	<0.0975 µM
C=C[C@@]1(CO)CO[C@@H](n2cc(C)c(=O)[nH]c2=O)C1	-	-	MT-4	>100 µg/mL
CCS(=O)(=O)C[C@H]1O[C@@H](n2cc(C)c(=O)[nH]c2=O)C[C@@H]1N=[N+]=[N-]	IIIB	-	MT-4	≥2.3 µg/mL
Cc1cc(SC2=C(O)C[C@@](CCc3ccc(N)cc3)(C(C)C)OC2=O)c(C(C)(C)C)cc1CO	Resistant isolates	-	PBMC	0.2 µM
Cc1cn([C@H]2C[C@H](N=[N+]=[N-])[C@@H](CO)O2)c(=O)[nH]c1=O	-	-	MT-4	0.007 µg/mL
CC(C)=CCOc1cc(NC(=S)c2ccsc2C)ccc1Cl	-	-	-	0.005 µM
COc1cc(CN2C(=O)N(Cc3cccc(C(=O)Nc4cnccn4)c3)[C@H](Cc3ccccc3)[C@H](O)[C@@H](O)[C@H]2Cc2ccccc2)cc(OC)c1	RF	-	MT-2	<0.7431 µM
Cc1nc(COc2ccc(C[C@H](NC(=O)O[C@H]3CO[C@H]4OCC[C@H]43)[C@H](O)CN(CC(C)C)S(=O)(=O)c3ccc4c(c3)OCO4)cc2)cs1	HXB2 WT	-	MT-4	0.000375 µM
Cc1nc2ccccc2n1C1(C)CCN(CC[C@H](NC(=O)C2CCC2)c2ccccc2)CC1	BAL R5	-	PM1	<0.14 µM
COc1ccccc1C(=O)Nc1ccc(Cl)c(C(=O)OC(C)C)c1	UC781-RS(RT-Y181C	RT-Y181C	-	10.1 µM
CCOP(=O)(CC[C@]1(CO)C=C[C@H](n2cnc3c(N)ncnc32)C1)OCC	-	-	CEM	47.5 µM
COc1ccc2c(c1)COP(=O)(OC[C@@H]1C=C[C@H](n3cnc4c(N)ncnc43)O1)O2	-	-	CEM + CEM/0	0.06 µM
COc1cc(CN2C(=O)N(Cc3cccc(C(=O)Nc4ccccn4)c3)[C@H](Cc3ccccc3)[C@H](O)[C@@H](O)[C@H]2Cc2ccccc2)cc(OC)c1	RF	-	MT-2	<0.1293 µM
Cc1c(O)cccc1C(=O)N[C@@H](CSc1ccccc1)[C@H](O)CN1C[C@H]2CCCC[C@H]2C[C@H]1C(=O)NC(C)(C)C	HXB2 WT	-	MT-4	0.0272 µM
COc1cccc(CN2C(=O)N(Cc3cccc(C(=O)Nc4cnccn4)c3)[C@H](Cc3ccccc3)[C@H](O)[C@@H](O)[C@H]2Cc2ccccc2)c1	RF	-	MT-2	<0.0912 µM
Nc1nc(=O)n([C@@H]2CS[C@H](CO)O2)cc1F	LAI	E138G	TZM-bl	0.5 µM
O=C1N(CC2CC2)[C@H](Cc2ccc3c(c2)OCCO3)[C@H](O)[C@@H](O)[C@@H](Cc2ccc3c(c2)OCCO3)N1CC1CC1	RF	-	MT-2	<0.928 µM
Cc1nc2ccccc2n1C1C[C@@H](C)N(CC[C@H](NC(=O)C2CCC2)c2ccccc2)[C@@H](C)C1	BAL R5	-	PM1	<0.053 µM
Cc1cn([C@H]2C[C@H](N=[N+]=[N-])[C@@H](CO)O2)c(=O)[nH]c1=O	IIIB	-	MT-4	0.00061 µg/mL
COc1ccc(C[C@@H]2[C@H](O)[C@@H](O)[C@@H](Cc3ccc(OC)c(OC)c3)N(Cc3ccccc3)C(=O)N2Cc2ccccc2)cc1OC	RF	-	MT-2	<0.64 µM
O=C(Nc1cc(S(=O)(=O)O)cc2cc(S(=O)(=O)O)c(N=Nc3ccc(N=Nc4c(S(=O)(=O)O)cc5cc(S(=O)(=O)O)cc(NC(=O)c6cccc(Cl)c6Cl)c5c4O)cc3)c(O)c12)c1ccc(Cl)cc1Cl	SF162	-	PBMC	0.4 µg/mL
O=C1N(Cc2ccc(O)cc2)[C@H](Cc2ccccc2)[C@H](O)[C@@H](O)[C@@H](Cc2ccccc2)N1Cc1ccc(O)cc1	RF	-	MT-2	<0.032 µM
CC1(C)Oc2ccc3ccc(=O)oc3c2[C@@H](OC(=O)C23CCC(C)(C(=O)O2)C3(C)C)[C@H]1OC(=O)C12CCC(C)(C(=O)O1)C2(C)C	-	-	H9	0.049 µM
CC(C)=CCN1Cc2cc(Cl)cc3[nH]c(=S)n(c23)C[C@@H]1C	-	RT-D67N K70R T215Y K219Q L100I	MT-4	<3 µM
Nc1ncnc2c1ncn2CCOCP(=O)(O)O	LAI	-	PBMC	0.42 µM
[N-]=[N+]=N[C@H]1C[C@H](n2cc(/C=C/c3ccccc3)c(=O)[nH]c2=O)O[C@@H]1CO	-	-	MOLT-4	5 µg/mL

For reference, 3 entries again:

smiles	strain or isolate	mutations	cells	result
Nc1nc2c(ncn2[C@H]2CO[C@@H](CO)O2)c(=O)[nH]1	IIIB	-	MT-4	0.05 µM
Cc1cc(SC2=C(O)C[C@@](CCc3ccc(N)cc3)(C(C)C)OC2=O)c(C(C)(C)C)cc1CO	Resistant isolates	-	PBMC	0.2 µM
O=C1N(CC2CC2)[C@H](Cc2ccc3c(c2)OCCO3)[C@H](O)[C@@H](O)[C@@H](Cc2ccc3c(c2)OCCO3)N1CC1CC1	RF	-	MT-2	<0.928 µM